Results deposited as PubChem BioAssay AID504761 (Drosophila RNAi Screening Center, 2011)
The screen tested about 22,000 reagents; shown is an unselected part of those with a known target gene and a result. Of all reagents, 116 (0.52%) are marked active. 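Calls depend on retest data that are not deposited; infection was ranked per plate without normalising between plates; the unit of the infection score is not given.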 Raw values vary from plate to plate and are shown uncorrected. Unmarked entries are inactive. Names joined by + are all predicted targets of the reagent. Not all columns of the deposit are shown. Reagent sequences are not shown. Not given: the amount of reagent, the time to read-out.

Assay: 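Insect host genes that dengue virus relies on to spread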 (primary screen)
System: D.Mel-2 cells from Drosophila
Knock-down reagent: long dsRNA against Drosophila genes
Conditions: infection with dengue virus type 2; dose and infection time not stated
Measurement: 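Cells stained for dengue envelope protein and imaged; percent of infected cells per well on duplicate plates, ranked by infection, with stained nuclei counted for cell number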
Scale: infection score: higher = more virus-infected cells; cell count: higher = more cells in the well
Hit rule: 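Very low infection ranking in both replicate wells (chance probability at most 0.065), then a retest showing infection dropped 1.5-fold or more at p below 0.05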
Calls: active = confirmed: knock-down lowers infection; inactive = not picked or not confirmed

no.	gene	amplicon	infection score, replicate 1	infection score, replicate 2	cell count, replicate 1
1	CG17027	DRSC10238	13.3	22.5	7042
2	CG17027	DRSC25560	1.88	2.85	6026
3	CG17068	DRSC20545	11.2	5.4	6780
4	CG18278 + CG30059	DRSC05418	1.7	0.69	6573
5	Octbeta2R	DRSC15350	3.87	14.3	6224
6	Octbeta2R	DRSC16165	1.21	12.2	6438
7	Octbeta2R	DRSC25380	3.33	3.85	6884
8	Octbeta2R	DRSC26383	1.94	1.96	5916
9	Septin4	DRSC20205	14.7	3.44	6272
10	Septin4	DRSC25409	7.84	7.71	5945
11	Tsp74F	DRSC10508	7.18	7.97	6618
12	msb1l	DRSC03572	37.8	12.9	5324
13	msb1l	DRSC26438	2.42	5.77	6807
14	CG8750	DRSC11037	0.29	1.07	6590
15	stg	DRSC17071	3.45	2.6	5283
16	stg	DRSC27238	6.38	11.7	6704
17	Rev1	DRSC08264	5.86	9.32	6572
18	CG4229	DRSC10407	1.7	5.76	6600
19	CG7548	DRSC10874	1.97	2.24	6501
20	CG7548	DRSC29043	13.1	0.94	1786
21	abd-A	DRSC13179	0.81	0.91	5201
22	abd-A	DRSC23013	1.82	1.05	6441
23	abd-A	DRSC29065	3.28	21.2	915
24	Golgin84	DRSC15269	8.63	18	6963
25	wge	DRSC15246	6.55	2.88	6552
26	wge	DRSC15672	0.64	8.3	5755

Records listed so far whose gene name starts with M or m:
gene	amplicon	infection score, replicate 1	infection score, replicate 2	cell count, replicate 1
msb1l	DRSC03572	37.8	12.9	5324
msb1l	DRSC26438	2.42	5.77	6807

More records follow.
no.	gene	amplicon	infection score, replicate 1	infection score, replicate 2	cell count, replicate 1
27	CG32452	DRSC11581	0.73	2.84	6142
28	CG32452	DRSC22250	1.82	6.21	6085
29	CG32452	DRSC26705	1.02	11.2	6173
30	CG42445	DRSC10858	6.63	3.37	6170
31	CG14717	DRSC14940	2.06	3.16	6759
32	CG43775	DRSC04206	17.3	12.3	5866
33	Zif	DRSC12514	4.75	7.02	5157
34	CG11353	DRSC08182	15.4	17.6	5724
35	CG31204	DRSC15106	11.3	2.07	4626
36	CG31204	DRSC28757			332
37	CG13245	DRSC02243	9.71	15.9	6467
38	sinu	DRSC09752	2.13	3.51	6793
39	Ace	DRSC14100	5.9	13.2	5920
40	Ace	DRSC25364	16.1	32.3	3715
41	mGluR	DRSC17215	13	2.15	5730
42	CG7506	DRSC10860	9.88	13.1	5497
43	dgt4	DRSC18659		6.82	239
44	dgt4	DRSC28573			403
45	CG16711	DRSC10220	1.69	3.1	6050
46	CG16711	DRSC23733	4.93	3.8	5924
47	CG13358	DRSC18534	6.76	1.46	5580
48	CG13358	DRSC23742	27.5	10	5374
49	CG32606 (retired record)	DRSC19001	0.37	0.03	6147
50	CG32606 (retired record)	DRSC19371	7.06	0.32	6004
51	CG32606 (retired record)	DRSC19372	10.3	12.2	4692
52	CG32606 (retired record)	DRSC23035	3.68	9.41	6251
53	CG32606 (retired record)	DRSC25810	2.29	8.66	6518
54	CG32606 (retired record)	DRSC26998	11.6	1.97	6569
55	Dgat2	DRSC06803	14.4	6.51	4971
56	MtnC	DRSC22879	5.49	14.4	6027
57	nw	DRSC06749	18.5	6.13	6228
58	nw	DRSC06896	12.4	31.9	2103
59	nw	DRSC25619	3.36	8.32	6273
